Experimental data taken from paper PMC10998906, “Triple tandem trimer immunogens for HIV-1 and influenza nucleic acid-based vaccines” (2024).

Target: H1 GCN4 (NL09 HA, GCN4-trimerized) (influenza A virus A/Netherlands/602/2009(H1N1))
Test: negative-stain EM

Substance: H1 GCN4 (NL09 HA, GCN4-trimerized) (domain or fragment)
- stoichiometry N: 3
